Target: neuraminidase of H275Y mutated influenza A/H1N1pdm09 virus isolates (Influenza A virus (H1N1pdm09), UniProt C3W5S3, H275Y)
Format: biochemical
Details: read-out: 50% inhibitory concentration

## CC(=O)N[C@H]1[C@H]([C@H](O)[C@H](O)CO)OC(C(=O)O)=C[C@@H]1N=C(N)N [Zanamivir, zanamivir]
  IC50: 0.8 nM
